For two compounds, Kd results are on record in ChEMBL document CHEMBL2176915, “Phenyltetrahydroisoquinoline-pyridinaldoxime conjugates as efficient uncharged reactivators for the dephosphylation of inhibited human acetylcholinesterase” (2012).

The assay has as its target Acetylcholinesterase (Homo sapiens, UniProt P22303). Description: Binding affinity to tabun-human AChE complex. The following applies: read-out: Kd(app).

Take `COc1cc2c(cc1OC)C(c1ccccc1)N(CCOCCCc1ccc(O)c(/C=N/O)n1)CC2` (configuration not stated): the Kd came out at 4 µM.

Regarding `COc1cc2c(cc1OC)C(c1ccccc1)N(CCCc1ccc(O)c(/C=N/O)n1)CC2` (configuration not stated), the Kd came to 7 µM.
